“And” between values parts separate entries of the source, which are not always exact repeats. Equal values may be shown once.

What is called inhibition is the relative decrease from the control value, in per cent.

This experiment has as its system SARS-CoV-2. The note with it: Chlorocebus sabaeus; Vero C1008; 10 uM.

As to COLISTIN SULFATE, the inhibition is 0.01% (2×) and 0.08% (2×).

These data come from ChEMBL document CHEMBL4495565, “Cytopathic SARS-Cov2 screening on VERO-E6 cells in a large repurposing effort” (2020).
